Measured values from several laboratories, pooled; numbers as filed in NIAID ChemDB.

All rows: tests in culture; agent: Herpes simplex virus 2; endpoint: EC50

ECn: concentration that inhibits the pathogen or its effect by n%.

smiles | strain | cell line | read by | result
COc1cc2c(c3c1c(=O)c1ccccc1n3C)C=CC(C)(C)O2 | - | HEF | plaque count | 3.3 µg/mL
Nc1ccn([C@@H]2C[C@@H](O)[C@H](CO)O2)c(=O)n1 | - | HFF | - | >100 µM
O=C(O)P(=O)(O)O | HS-47 | HEL | cytopathic effect | 21.3 µg/mL
COc1cc(C2c3c(cc4c(c3OC)OCO4)C[C@H]3COC(=O)[C@H]23)cc(OC)c1OC | G | MRC-5 | - | 0.058 µg/mL
NC(CS)C(=O)O.O=c1[nH]c(=O)n([C@H]2C[C@H](O)[C@@H](CO)O2)c[c]1[Hg+] | HG-25 | KB | virus yield | 0.176 µg/mL
Nc1ncnc2c1ncn2OCC/C=C\P(=O)(O)O | MS | MRC-5 | plaque count | >300 µM
Nc1nc(=O)n([C@H]2O[C@@H](CO)C[C@H]2F)cc1I | - | VERO | - | >100 µM
CCn1cc(C(N)=O)c(=O)c2ccc(-n3ccnc3)cc21 | - | VERO | plaque count | >50 µg/mL
O=C(O)C(Br)P(=O)(O)O | Lovelace | - | plaque count | 890 µM
Cc1cn([C@@H]2C[C@@H](O)[C@H](CO)O2)c(=O)[nH]c1=O | - | HFF | - | >100 µM
Clc1cc2nc[nH]c2cc1Cl | G | E6SM | cytopathic effect | 10 µg/mL
COc1cc(C2c3cc4c(cc3C[C@H]3COC(=O)[C@H]23)OCO4)cc(OC)c1OC | G | MRC-5 | - | 0.011 µg/mL
NC(=O)c1c[se]c([C@@H]2O[C@H](CO)[C@@H](O)[C@H]2O)n1 | MS | HeLa | cytopathic effect | 4 µg/mL
O=C(O)C(F)P(=O)(O)O | G | - | plaque count | 130 µM
C=C(/C=C/P(=O)(O)O)Cn1cnc2c(=O)[nH]c(N)nc21 | MS | MRC-5 | plaque count | >300 µM
O=c1[nH]c(=O)n([C@H]2C[C@H](O)[C@@H](CO)O2)c[c]1[Hg+].OCC[S-] | HG-25 | KB | virus yield | 0.394 µg/mL
Nc1ncnc2c1ncn2C[C@H]1COP(=O)(O)CO1 | - | Primary rabbit kidney cells | - | 4 µg/mL
O=C(O)P(=O)(O)O | Lovelace | - | plaque count | 165 µM
Nc1ccn(OC(/C=C/P(=O)(O)O)CO)c(=O)n1 | MS | MRC-5 | plaque count | >300 µM
COc1cc(O)c2c(=O)c3cccc(O)c3n(C)c2c1OC | Phosphonoacetic acid-resistant | HEF | plaque count | 0.63 µg/mL
OCCOC(CO)n1cnc2cc(Cl)c(Cl)cc21 | G | E6SM | cytopathic effect | >200 µg/mL
Nc1nc2c(ncn2OC(/C=C/P(=O)(O)O)CO)c(=O)[nH]1 | MS | MRC-5 | plaque count | >300 µM
C[C@H]1O[C@@H](O[C@H]2CC[C@@]3(C)[C@H](CC[C@@H]4[C@@H]3CC[C@]3(C)[C@@H](C5=CC(=O)OC5)CC[C@]43O)C2)C[C@H](O)[C@@H]1O[C@@H]1O[C@H](CO)[C@@H](O)[C@H](O)[C@H]1O | 333 | GMK AH1 | plaque count | 0.04 µM
CCn1cc(C(N)=O)c(=O)c2ccc(-c3ccccc3)cc21 | - | VERO | plaque count | >50 µg/mL
COC(=O)[C@H](C)NP(=O)(OC[C@@H]1C[C@]12C[C@@H]2n1cnc2c(N)ncnc21)Oc1ccccc1 | - | HFF | plaque count | 22 µM
CCCCCc1c(O)c(CCCCC)c2c(c1O)c(=O)c1cccc(O)c1n2C | - | HEF | plaque count | 8.4 µg/mL
Nc1nc2c(ncn2COC(CO)CO)c(=O)[nH]1 | ACV-resistant | HEL | cytopathic effect | 0.37 µg/mL
Nc1ncnc2c1ncn2[C@@H]1C[C@@H](O)[C@H](CO)O1 | - | HFF | - | >100 µM
OC[C@H]1O[C@@H](n2cnc3cc(Cl)c(Cl)cc32)[C@@H](O)[C@H]1O | G | E6SM | cytopathic effect | >40 µg/mL
O=C(O)P(=O)(O)O | PCV-resistant/B | HEL | cytopathic effect | 10 µg/mL
CCn1cc(C(N)=O)c(=O)c2ccc(F)cc21 | - | VERO | plaque count | >50 µg/mL
COc1c(O)ccc2c(=O)c3c(O)cc(O)cc3n(C)c12 | - | HEF | plaque count | >20 µg/mL
COc1cc([C@@H]2c3cc(O)c(O)cc3C[C@H]3COC(=O)[C@@H]32)cc(OC)c1OC | G | MRC-5 | - | 0.252 µg/mL
Nc1ncnc2c1ncn2C[C@@H](CO)OCP(=O)(O)O | ACV-resistant | HEL | cytopathic effect | 0.011 µg/mL
Nc1nc(=O)n([C@@H]2O[C@H](CO)[C@@H](O)[C@@H]2F)cc1I | HS-44 | HEL | cytopathic effect | 7.5 µg/mL
Nc1ccn([C@@H]2C[C@@H](O)[C@H](CO)O2)c(=O)n1 | - | HFF | - | >100 µM
OC[C@H]1O[C@H](n2cnc3cc(Cl)c(Cl)cc32)[C@@H](O)[C@H]1O | G | E6SM | cytopathic effect | 200 µg/mL
C[C@H]1O[C@@H](O[C@H]2CC[C@@]3(C)[C@H](CC[C@@H]4[C@@H]3CC[C@]3(C)[C@@H](C5=CC(=O)OC5)CC[C@]43O)C2)C[C@H](O)[C@@H]1O | 333 | GMK AH1 | plaque count | 0.03 µM
Nc1ncnc2c1ncn2CCOCP(=O)(O)O | - | Primary rabbit kidney cells | - | 7 µg/mL
CCn1cc(C(=O)NCCO)c(=O)c2ccc(-c3ccncc3)cc21 | - | VERO | plaque count | >25 µg/mL
COc1cc(O)c2c(=O)c3ccc(O)c(OC)c3n(C)c2c1 | - | HEF | plaque count | 0.59 µg/mL
Nc1nc(N)c2ncn(CCOCP(=O)(O)O)c2n1 | - | Primary rabbit kidney cells | - | 0.7 µg/mL
CO[C@H]1C[C@H](O[C@H]2CC[C@]3(C=O)[C@H]4CC[C@]5(C)[C@@H](C6=CC(=O)OC6)CC[C@]5(O)[C@H]4CC[C@]3(O)C2)O[C@H](C)[C@H]1O | 333 | GMK AH1 | plaque count | 0.11 µM
Nc1ccn(C[C@@H](CO)OCP(=O)(O)O)c(=O)n1 | HS-47 | HEL | cytopathic effect | 0.32 µg/mL
C[C@H]1O[C@@H](O[C@H]2[C@@H](O)C[C@H](O[C@H]3CC[C@@]4(C)[C@H](CC[C@@H]5[C@@H]4C[C@@H](O)[C@]4(C)[C@@H](C6=CC(=O)OC6)CC[C@]54O)C3)O[C@@H]2C)C[C@H](O)[C@@H]1O | 333 | GMK AH1 | plaque count | 0.23 µM
CCn1cc(C(=O)N(C)O)c(=O)c2ccc(-c3ccncc3)cc21 | - | VERO | plaque count | >50 µg/mL
O=C(O)P(=O)(O)O | B4327UR | SIRC | plaque count | <100 µM
O[C@@H]1CC(n2cnc3cc(Cl)c(Cl)cc32)OC[C@@H]1O | G | E6SM | cytopathic effect | >100 µg/mL
CCCCCc1c2c(c3[nH]c4c(O)cccc4c(=O)c3c1O)C=CC(C)(C)O2 | - | HEF | plaque count | 0.82 µg/mL
O=c1ccn([C@@H]2O[C@@H](CO)C[C@H]2F)c(=O)[nH]1 | - | VERO | - | >100 µM
COc1cc(OC)c2c(=O)c3ccccc3n(C)c2c1 | - | HEF | plaque count | >20 µg/mL
O=c1[nH]c(=O)n([C@H]2O[C@@H](CO)C[C@H]2F)cc1Cl | - | VERO | - | >51 µM
O=C(O)CP(=O)(O)O | G | - | plaque count | 190 µM
Cc1cn([C@H]2O[C@@H](CO)C[C@H]2F)c(=O)[nH]c1=O | - | VERO | - | >100 µM
CC1(C)C=Cc2c(cc(O)c3c(=O)c4ccccc4[nH]c23)O1 | - | HEF | plaque count | >20 µg/mL
Nc1ncnc2c1ncn2CC/C=C\P(=O)(O)O | MS | MRC-5 | plaque count | >300 µM

Lines come from different laboratories, so protocols vary. An empty or dashed field is not shown.